Data taken from PMC7251119 (Nature Communications, 2020).
Numbering of substitutions follows the chain as printed. In names and notes the source's numbering stands.

B1: SidH(1830-2200) (domain or fragment)
chain: DSIPKENTVEFLKKMQEETRSSLKSLESNDALINIYDVLNSLKETIENGSDLPEIKKDKLQMISDVQNILSNFDKNPAERLNLAVQILNDSNPEVLSKTKGNFLIGEAFKGQVFTNYINTKISEQLNNELGPYGKVFLKQIMPDFIAKKSEIIKEIAIDNMETGLETQFKIHAPAIFEKNKELKAAYEQLNVHLKEVQSLIEAEEKKPKGNPCREEKIAALRSHQSQLMNTQRIPDHETLRFLQEQNKSAKSFMGKLEKYDTMISVYDSLTEIREHVSNHKSLSKEIKDEKIQEISKMEDMLKTTSKEPSIRLAEVKAHGLSDQCKNVLLKNSDNFLVSFFKTLFSKLFNIKNENETLVSSFKQRLQNIKG
B2: SidH(1830-2200;F2191A) (domain or fragment)
chain: B1 chain with F362A
B3: SidH(1830-2200;L2195A) (domain or fragment)
chain: B1 chain with L366A
B4: SidH(1830-2200;K2199A) (domain or fragment)
chain: B1 chain with K370A

Legend:
[1] = biological target: (His)10-MBP-DotL(656-783)–IcmSW–LvgA(I153E) (Legionella pneumophila, UniProt Q5ZYC6;Q5ZYD0;Q5ZS31;Q5ZY48, I153E); assay: BLI
[2] = biological target: T1, (His)10-MBP-DotL(656-783)–IcmSW–LvgA (Legionella pneumophila, UniProt Q5ZYC6;Q5ZYD0;Q5ZS31;Q5ZY48); assay: BLI
T1 construct: copies: + + +

Binder	fold increase of KD against the wild-type complex [1] [fold]	fold increase of KD against SidH(1830-2200) [2] [fold]
B1	~11	
B2		≥ 25
B3		≥ 24
B4		≥ 4
